Experimental findings from patent US10300050B2, “Succinate salt of cytisine and use thereof” (dated 2019) are described below.

For data set [1] the following is noted: with lactose, 9 days at 40° C. and 75% RH.
Data set [2] is described as follows: Salt screen of cytisine with acid salt formers.
Data set [3] is described as follows: Stability of cytisine succinate salt in standard formulations / excipient compatibility. Particulars: preliminary analysis.

Consider cytisine hydrogen succinate, for which, in data set [1], the “rate of degradation of cytisine versus free base form” value is “degraded at a substantially lower rate”. The Assessment entry in data set [2] (API stock solution 2-MeTHF) is recorded as “Equivalent succinate to CH3CN”; in data set [2] (API stock solution CH3CN) it was “Excellent salt profile, mono succinate,”. Besides, in data set [3], the “stability of formulations versus formulations comprising cytisine free base” value is on record as “significantly more stable”.
